Results published in patent US7390873B2, “Antimicrobial cationic peptides” (University of British Columbia, priority 1995, dated 2008).

Test system: Salmonella typhimurium 14028S
Test: Relative MIC of crude preparations of recombinant peptides
Format: cell-based
Details: for Gram-negative activity relative to indolicidin: from MICs of crude preparations of recombinant peptides; for Activity against gram-negative bacteria compared with indolicidin-R: MIC assay
Excerpt: Expression and purification of various cationic peptides has previously been described (Hancock et al., U.S. Ser. No. 08/575,052, incorporated herein by reference, and Gene, 134 (1993) 7-13). In order to recombinantly express various antimicrobial peptides described below, oligonucleotides representing both strands of DNA encoding the various peptides were synthesized on an Applied Biosystems 392 DNA/RNA synthesizer using conventional methods. After annealing of the strands of DNA, the resulting DNA fragments were cloned into the Staphyloccus aereus expression vector pRIT5. Following transformation of the various clones into E. Coli DH5α, the recombinant plasmids were purified and sequenced and then electroporated (Bio Rad Gene Pulser Transfection Apparatus) into S. aereus K147.

| Sequence | Gram-negative activity relative to indolicidin | Activity against gram-negative bacteria compared with indolicidin-R |
| --- | --- | --- |
| ILKKWPWWPWRR [CP-4R] | 0.5X | – |
| ILKPWKWPWWPWRR [CP-1R] | 0.5X | – |
| ILPWKWFFPPWPWRR [CP-pM1b] | 0.2X | – |
| ILPWKWPPWPPWPWRR [CP-pM2b] | 1.5X | increased activity |
| ILPWKWPWRR [CP-pM] | 0.2X | – |
| ILPWKWPWWPWWKKPWRR [CP-pM5] | 0.5X | – |
| ILPWKWPWWPWWPWRR [CP-pM2a] | 1.5X | increased activity |
